The numbers were not newly measured in PMC9696605, which cites them from elsewhere.

By UniProt entry, the sequences of proteins in these tests, tags left out. Where a name states a change or a piece, a line headed by the entry shows the natural chain unless it says otherwise. Residues count along the entry.
UniProt Q96PU5, 494-533: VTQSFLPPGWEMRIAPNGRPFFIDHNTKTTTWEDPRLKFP
UniProt Q96PU5, 497-530: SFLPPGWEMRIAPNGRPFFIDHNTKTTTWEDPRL
UniProt Q69559: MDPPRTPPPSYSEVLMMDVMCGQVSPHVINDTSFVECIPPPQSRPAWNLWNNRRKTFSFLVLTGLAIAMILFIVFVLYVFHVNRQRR

By Kd is commonly meant the equilibrium constant for the complex coming apart.

The target in data set [1] is hNedd4L WW3* (Homo sapiens) (UniProt Q96PU5).
Data set [2] has as its target hNedd4L-WW3* WW3* (497-530) (Homo sapiens) (UniProt Q96PU5). In words: ITC.

Turning to pU24-6A (from UniProt Q69559), the Kd in data set [1] and in data set [2] was 760 nM throughout.
